Activity change, negative = inhibition data for 54 compounds are collected here from PubChem BioAssay AID1259415 (National Center for Advancing Translational Sciences (NCATS), 2018).

The entries are a selection whose mix differs from that of the whole data set. Records with an inconclusive call do not appear. Activity calls are given as the source filed them. No stated cut-off is given here; in the data, active means activity change below about -60%; inconclusive means no clear call, values can overlap the other calls; inactive means above about -39%.
On the % scale 0 is the no-effect control and ±100 the full control effect.

The test can be described thus: qHTS Assay for inhibitors of the human cytomegalovirus (HCMV). Particulars: HFF cells, HCMV-luciferase reporter, 72 h; at 57.5 µM; hits give low values. In short, it runs like this:
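HFF cells seeded 16 h at 37C, treated with compounds, infected with luciferase-reporter HCMV at MOI 1 PFU/cell; luciferase read at 72 h post infection, normalized to buffer-only and Salinomycin controls.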
Consider `Cc1nc2ccc3ccccc3c2s1.O=[N+]([O-])c1cc([N+](=O)[O-])c(O)c([N+](=O)[O-])c1`, for which the activity change, negative = inhibition is inactive: -11%.

On to `COc1ccccc1OP(C)(=O)Nc1cccc(Br)c1` (centres undefined), for which the activity change, negative = inhibition was inactive: -36.5%.

Turning to `CCOC(=O)c1ccc(NP(C)(=O)Oc2cc(C)cc(C)c2)cc1` (centres undefined), the activity change, negative = inhibition is inactive: -20.4%. The value for `Cc1cc(C)cc(OP(C)(=O)Nc2ccc(C)cc2C)c1` (centres undefined) was inactive: -12.5%; that for `Cc1cc(C)cc(OP(C)(=O)Nc2ccccn2)c1` (centres undefined) was inactive: 9.02%; that for `CP(=O)(Nc1cccc(Br)c1)Oc1ccccc1` (centres undefined) was inactive: -5.51%. In the case of `CC1=NCCc2c1[nH]c1ccccc21.O=[N+]([O-])c1cc([N+](=O)[O-])c(O)c([N+](=O)[O-])c1` it was inactive: 40.1%; in that of `CCOC(=O)c1ccc(NP(C)(=O)Oc2ccc(F)cc2)cc1` (centres undefined), inactive: -8.79%. As to `COc1ccc(OP(C)(=O)Nc2ccc(SC(F)(F)F)cc2)cc1` (centres undefined), the activity change, negative = inhibition was inactive: 27%. As to `Cc1c([N+](=O)[O-])cc([N+](=O)[O-])c(Br)c1[N+](=O)[O-]`, the activity change, negative = inhibition was inactive: 50.8%. In the case of `CCN(CC)CCCOC(=O)C(O)(c1ccccc1)C1CCCCC1` (centres undefined), the activity change, negative = inhibition was inactive: -19.8%. For `CP(=O)(Nc1ccccc1)Oc1ccc(F)cc1` (centres undefined), the activity change, negative = inhibition was inactive: 32.9%. As for `CCCCCOc1ccc(NP(C)(=O)Oc2ccc(Cl)cc2Cl)cc1` (centres undefined), the activity change, negative = inhibition is inactive: -4.73%.

Consider `CP(=O)(Nc1ccccc1F)Oc1ccccc1` (centres undefined), for which the activity change, negative = inhibition was inactive: 55.4%. In the case of `CC(C)c1ccc(OP(C)(=O)Nc2ccc(SC(F)(F)F)cc2)cc1` (centres undefined) it was inactive: -29%; in that of `O=C(OCCN1CCN(CCOCc2ccccc2)CC1)C(O)(c1ccccc1)c1ccccc1`, inactive: -33.1%. In the case of `CP(=O)(Nc1ccc(SC(F)(F)F)cc1)Oc1ccc(F)cc1` (centres undefined) it was inactive: -1.78%; in that of `CCOP(C)(=S)SCC(=O)NC(C)(CC)C(=O)O` (centres undefined), inactive: 30%; in that of `CCOP(=O)(CC)OCC`, inactive: 19.6%.

With `CP(=O)(Nc1ccc2c(c1)OCCO2)Oc1ccccc1` (centres undefined), the activity change, negative = inhibition was inactive: 2.88%. Consider `Cc1ccccc1NP(C)(=O)Nc1ccccc1C`, for which the activity change, negative = inhibition was inactive: -30.5%.

Regarding `O=[N+]([O-])c1cc([N+](=O)[O-])c(C(F)(F)F)c([N+](=O)[O-])c1O`, the activity change, negative = inhibition is inactive: 18.2%. In the case of `CN(C)CCOC(=O)C(O)(c1ccccc1)C1CCCCC1` (centres undefined) it was inactive: 15.5%.

For the compound `COc1ccc(NP(C)(=O)Oc2ccccc2OC)cc1` (centres undefined), the activity change, negative = inhibition is inactive: 28.6%. In the case of `O=[N+]([O-])c1ccc(OP2(=O)COCCO2)cc1` (centres undefined) it was inactive: 68.7%; in that of `Cc1cc(-c2cccc3ccccc23)c(C)cn1.O=[N+]([O-])c1cc([N+](=O)[O-])c(O)c([N+](=O)[O-])c1`, inactive: -16.8%; in that of `Cc1c(C(c2ccc3c(c2)OCO3)c2c(C)n(C)n(-c3ccccc3)c2=O)c(=O)n(-c2ccccc2)n1C.O=[N+]([O-])c1cc([N+](=O)[O-])c(O)c([N+](=O)[O-])c1`, inactive: -37.8%. For the compound `Nc1ccc2c(ccc3cccnc32)n1.O=[N+]([O-])c1cc([N+](=O)[O-])c(O)c([N+](=O)[O-])c1`, the activity change, negative = inhibition is inactive: 48%. Regarding `CCOC(=O)c1ccc(NP(C)(=O)Oc2ccc(Cl)cc2)cc1` (centres undefined), the activity change, negative = inhibition is inactive: 18.4%. For the compound `CP(=O)(OC12CC3CC(CC(C3)C1)C2)OC12CC3CC(CC(C3)C1)C2`, the activity change, negative = inhibition is inactive: -10.5%.

Consider `COc1ccc(OP(C)(=O)Nc2ccc(Br)cc2)cc1` (centres undefined), for which the activity change, negative = inhibition was inactive: 39.4%. In the case of `CCN(CC)CC(O)COC(=O)C(O)(c1ccccc1)C1CCCCC1` (centres undefined) it was inactive: 2.45%. For `O=C(OCCCN1CCCC1)C(O)(c1ccccc1)C1CCCCC1` (centres undefined), the activity change, negative = inhibition is inactive: -15.8%. As for `COc1ccccc1OP(C)(=O)Nc1c(C)n(C)n(-c2ccccc2)c1=O` (centres undefined), the activity change, negative = inhibition was inactive: 44.8%.

`CCc1ccc(OP(C)(=O)Nc2cccnc2)cc1` (centres undefined): the activity change, negative = inhibition is inactive: -25.5%. `CP(=O)(Oc1ccccc1)N1CCOC1=O` (centres undefined): the activity change, negative = inhibition was inactive: -20.4%. With `COc1ccccc1OP(C)(=O)Nc1ccccc1Br` (centres undefined), the activity change, negative = inhibition was inactive: 91.3%.

Turning to `CC(C)(C)c1ccc(OP(C)(=O)O)cc1`, the activity change, negative = inhibition is inactive: 41%. For the compound `CP(=O)(Nc1ccc(Cl)cc1)Oc1ccc(F)cc1` (centres undefined), the activity change, negative = inhibition was inactive: 5.46%. In the case of `CN(C)C(=O)c1c([N+](=O)[O-])cc([N+](=O)[O-])cc1[N+](=O)[O-]` it was inactive: 11.9%. Regarding `COc1ccccc1OP(C)(=O)Nc1ccc(Br)cc1` (centres undefined), the activity change, negative = inhibition was inactive: -31.4%.

Consider `COc1ccc(OP(C)(=O)Nc2ccccn2)cc1` (centres undefined), for which the activity change, negative = inhibition is inactive: 69%. The value for `CN(C)CCOC(=O)C(O)(c1ccccc1)C1CCCC1` (centres undefined) was inactive: 2.71%. Consider `Cc1c(NP(C)(=O)Oc2ccc(C(C)C)cc2)c(=O)n(-c2ccccc2)n1C` (centres undefined), for which the activity change, negative = inhibition is inactive: 1.97%.

`O=[N+]([O-])c1cc([N+](=O)[O-])c(Nc2ccccn2)c([N+](=O)[O-])c1`: the activity change, negative = inhibition is inactive: -31.9%. In the case of `COc1ccccc1OP(C)(=O)Nc1ccc(C)cc1C` (centres undefined) it was inactive: 38%; in that of `CP(=O)(Nc1ccccn1)Oc1ccccc1` (centres undefined), inactive: 12%; in that of `CCc1ccc(OP(C)(=O)O)cc1`, inactive: -26.3%. In the case of `Cc1cc(C)cc(OP(C)(=O)Nc2cccc(C(F)(F)F)c2)c1` (centres undefined), the activity change, negative = inhibition was inactive: -38.2%. For the compound `COc1ccccc1OP(C)(=O)Nc1ccc(C)c(C)c1` (centres undefined), the activity change, negative = inhibition was inactive: -9.87%. In the case of `COc1ccc(OP(C)(=O)Nc2ccccc2Br)cc1` (centres undefined) it was inactive: -7.01%. With `CCCCCCCCCCCCCCCC1C[N+](C)(C)CCOP(C)(=O)O1` (centres undefined), the activity change, negative = inhibition is inactive: -33.4%.

With `CP(=O)(Nc1ccc(Cl)cc1Cl)Oc1ccccc1` (centres undefined), the activity change, negative = inhibition is inactive: -14.9%. As for `CP(=O)(OCCOc1ccccc1)OCCOc1ccccc1`, the activity change, negative = inhibition was inactive: 9.74%.
